Results taken from US20140377259A1, “METHODS FOR INHIBITING HIV-1 REPLICATION INVOLVING THE ADMINISTRATION OF AN ANTI-CCR5 RECEPTOR MONOCLONAL ANTIBODY AND SMALL MOLECULE CCR5 RECEPTOR ANTAGONIST” (CytoDyn Inc., priority 2005, published 2014).

Protein sequences, listed by entry. Tags and fused reporters are not part of them.
UniProt P51681, whole entry: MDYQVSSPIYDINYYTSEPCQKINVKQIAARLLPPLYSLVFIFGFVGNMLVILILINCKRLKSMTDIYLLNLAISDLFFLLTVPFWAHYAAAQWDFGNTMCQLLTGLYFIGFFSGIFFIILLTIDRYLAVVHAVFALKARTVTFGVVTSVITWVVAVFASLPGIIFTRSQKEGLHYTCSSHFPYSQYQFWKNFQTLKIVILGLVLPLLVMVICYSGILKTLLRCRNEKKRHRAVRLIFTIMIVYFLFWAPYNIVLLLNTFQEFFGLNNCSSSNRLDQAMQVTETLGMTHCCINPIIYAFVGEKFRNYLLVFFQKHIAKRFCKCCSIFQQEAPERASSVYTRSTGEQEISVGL

Molecular target: T1, CCR5 (Homo sapiens, UniProt P51681)
T1 construct: host or cells: CEM.NKR (human T cell leukemia line), transduced with CCR5
Assay: Competition binding: inhibition of 3H-UK-427,857 binding to CEM.NKR-CCR5 cells

B1: PRO 140: humanized IgG4,κ anti-CCR5 monoclonal antibody, humanized version of murine mAb PA14 (antibody, chains of the INN, looked up, V domains shown)
VH: EVQLVESGGGLVKPGGSLRLSCAASGYTFSNYWIGWVRQAPGKGLEWIGDIYPGGNYIRNNEKFKDKTTLSADTSKNTAYLQMNSLKTEDTAVYYCGSSFGSNYVFAWFTYWGQGTLVTVSS
VL: DIVMTQSPLSLPVTPGEPASISCRSSQRLLSSYGHTYLHWYLQKPGQSPQLLIYEVSNRFSGVPDRFSGSGSGTDFTLKISRVEAEDVGVYYCSQSTHVPLTFGQGTKVEIK
For B1, the “EC50 for 3H-UK-427,857 binding relative to antiviral IC50” value was 5-10 fold.
